Literature values, collected in article PMC11768059, “Guanidines Conjugated with Cell-Penetrating Peptides: A New Approach for the Development of Antileishmanial Molecules” (Molecules, 2025).
pIC50: −log10 of the molar value.

Target: cysteine protease LmCPB2.8∆CTE (CPB) (Leishmania mexicana, UniProt P36400)
Conditions: read-out: IC50 on LmCPB2.8∆CTE (CPB); cited from earlier work

## CC(C)(C)c1ccc(N=C(NCc2ccccc2)NC(=O)c2ccccc2)cc1
  pIC50: 5.22
